Substitutions are numbered along the chain they refer to. In names and notes the source's numbering stands.

Test [1] deals with panel of HIV-1 envelopes (pseudotyped HIV-1 virus). Nature of the test: PSV assay (ACTOne cells), HIV-1 envelopes. It is filed as cell-based. The protocol: (§1) The anti-viral activity of the antigen binding proteins was measured in a pseudotyped virus (PSV) assay.
(§2) PSV was produced in HEK-293T cells (ATCC, Manassas VA) by co-transfecting expression plasmids encoding the HIV-1 gp160 envelope gene and an HIV-1 backbone plasmid using TRANSIT-2020 transfection reagent (Mirus Bio, Madison WI). A panel of HIV-1 PSVs expressing different gp160 envelope trimers was generated to evaluate the effectiveness of the antigen binding proteins of the invention against a wide spectrum of HIV-1 strains.
(§3) The genome of PSV used in this assay contains a luciferase gene that is expressed once the virus enters cells. Accordingly, the luminescence signal (after adding a substrate of luciferase) can be used to determine the level of viral infection.
The 50% tissue culture infectious dose (TCID) of a single thawed aliquot of each batch of PSV was determined in ACTOne cells. The ACTOne cell-line used in this assay was derived in-house from a genetically engineered 293T cell clone that expresses CD4, CXCR4, and CCR5. Cells were maintained in growth medium composed of Dulbecco's modified Eagle's medium (DMEM, Life Technologies) at 37° C. in a humidified 5% CO2-95% air environment. Cell monolayers were split by treatment with Trypsin-EDTA (0.05%).
To run the anti-viral assay, ACTOne cells were detached by treating the cell culture flask with trypsin (trypsinization) and resuspended in growth medium containing 2% of DMSO to a density of 2.5×10^5 cells/ml. One hundred μl of such cells was added to 10 μl of antigen binding protein pre-loaded in a 96-well plate. Ninety μl of PSV was then added to each well. The assay plates were incubated at 37° C. in a humidified incubator at 5% CO2 level. Plates were developed after 72 hours of incubation by adding 50 μl of BRIGHTGLO luciferase reagent (Promega, Madison WI) to each well, and transferring the plates to an ENVISION multilabel plate reader (PerkinElmer, Waltham MA) to measure the luminescence and determine the level of virus that had infected the cells. The higher the luminescence signal, the higher the level of infection.

Test [2] has as its system HIV-2 Env-pseudotypes (HIV-2-AID, HIV-2-ATM88, HIV-2-HCC-01). As to the kind of experiment: PSV assay (ACTOne cells), HIV-2 envelopes. The class given is cell-based. The settings on record: envelope HIV-2-HCC-01. As to the method:
as §1, §2, §3
The 50% tissue culture infectious dose (TCID) of a single thawed aliquot of each batch of PSV was determined in ACTOne cells. The ACTOne cell-line used in this assay was derived in-house from a genetically engineered 293T cell clone that expresses CD4, CXCR4, and CCR5. […]
To run the anti-viral assay, ACTOne cells were detached by treating the cell culture flask with trypsin (trypsinization) and resuspended in growth medium containing 2% of DMSO to a density of 2.5×10^5 cells/ml. […] The higher the luminescence signal, the higher the level of infection. […]

B1: bNAb19: anti-V3 broadly neutralizing antibody; HC with LS SEQ ID NO:318, LC SEQ ID NO:319 (antibody)
heavy: EVQLVESGGGLVKAGGSLILSCGVSNFRISAHTMNWVRRVPGGGLEWVASISTSSTYRDYADAVKGRFTVSRDDLEDFVYLQMHKMRVEDTAIYYCARKGSDRLSDNDPFDAWGPGTVVTVSPASTKGPSVFPLAPSSKSTSGGTAALGCLVKDYFPEPVTVSWNSGALTSGVHTFPAVLQSSGLYSLSSVVTVPSSSLGTQTYICNVNHKPSNTKVDKKV[human IgG1 Fc with changes not given here]
light: DVVMTQSPSTLSASVGDTITITCRASQSIETWLAWYQQKPGKAPKLLIYKASTLKTGVPSRFSGSGSGTEFTLTISGLQFDDFATYHCQHYAGYSATFGQGTRVEIKRTVAAPSVFIFPPSDEQLKSGTASVVCLLNNFYPREAKVQWKVDNALQSGNSQESVTEQDSKDSTYSLSSTLTLSKADYEKHKVYACEVTHQGLSSPVTKSFNRGEC
modifications: LS Fc mutation
With B1, the IC50 in test [1] (envelope 3326_V4_C3), in test [1] (envelope 3468_V1_C12), in test [1] (envelope 3637_V5_C3), in test [1] (envelope 42368), in test [1] (envelope Q461_E2) and in test [1] (envelope X2088.C9) was more than 300 nM in each case. Also, the IC50 in test [1] (envelope ZM106.9) is more than 300 nM.

B2: bNAb7: anti-V3 broadly neutralizing antibody; HC with LS SEQ ID NO:258, LC SEQ ID NO:259 (antibody)
heavy: QVHLQESGPGLVKPSETLSLTCNVSGTLVRDNYWSWIRQPLGKQPEWIGYVHDSGDTNYNPSLKSRVHLSLDKSKNLVSLRLTGVTAADSAIYYCATTKHGRRIYGVVAFKEWFTYFYMDVWGKGTSVTVSSASTKGPSVFPLAPSSKSTSGGTAALGCLVKDYFPEPVTVSWNSGALTSGVHTFPAVLQSSGLYSLSSVVTVPSSSLGTQTYICNVNHKPSNTKVDKKV[human IgG1 Fc with changes not given here]
light: TFVSVAPGQTARITCGEESLGSRSVIWYQQRPGQAPSLIIYNNNDRPSGIPDRFSGSPGSTFGTTATLTITSVEAGDEADYYCHIWDSRRPTNWVFGEGTTLIVLGQPKAAPSVTLFPPSSEELQANKATLVCLISDFYPGAVTVAWKADSSPVKAGVETTTPSKQSNNKYAASSYLSLTPEQWKSHRSYSCQVTHEGSTVEKTVAPTECS
modifications: LS Fc mutation
Take B2: the IC50 was more than 500 nM in test [1] (envelope 93UG065, PSV assay); 0.75 nM in test [1] (envelope 0260.v5.c36, PSV assay); 32.7 nM in test [1] (envelope 928_28, PSV assay); more than 500 nM in test [1] (envelope 3326_V4_C3, PSV assay); more than 500 nM in test [1] (envelope 3468_V1_C12, PSV assay); more than 500 nM in test [1] (envelope 3637_V5_C3, PSV assay). Moreover, the IC50 is more than 500 nM in test [1] (envelope 6471_V1_C16, PSV assay); more than 500 nM in test [1] (envelope 42368, PSV assay); more than 500 nM in test [1] (envelope 620345_C1, PSV assay); more than 500 nM in test [1] (envelope Q461_E2, PSV assay); more than 500 nM in test [1] (envelope TH976_17, PSV assay); 0.22 nM in test [1] (envelope X2088.C9, PSV assay). Moreover, the IC50 in test [1] (envelope YU-2, PSV assay) came to 0.58 nM; in test [1] (envelope ZM106.9, PSV assay), 0.04 nM.

B3: D1m-K8C-G99C_1xG4S_bNAb10: bispecific: D1m-K8C-G99C fused via 1xG4S to bNAb10 heavy chain; SEQ ID NOs 341 + 274 (antibody)
heavy: KKVVYGKCGDTVELTCTASQKKNIQFHWKNSNQIKILGNQGSFLTKGPSKLNDRVDSRRSLWDQGNFPLIIKNLKPEDSDTYICEVEDQKEEVQLVVVCGGGGSQPQLQESGPGLVEASETLSLTCTVSGDSTAACDYFWGWVRQPPGKGLEWIGGLSHCAGYYNTGWTYHNPSLKSRLTISLDTPKNQVFLKLNSVTAADTAIYYCARFDGEVLVYHDWPKPAWVDLWGRGTLVTVTVSSASTKGPSVFPLAPSSKSTSGGTAALGCLVKDYFPEPVTVSWNSGALTSGVHTFPAVLQSSGLYSLSSVVTVPSSSLGTQTYICNVNHKPSNTKVDKKV[human IgG1 Fc with changes not given here]
light: QSALTQPPSASGSPGQSISISCTGTSNRFVSWYQQHPGKAPKLVIYGVNKRPSGVPDRFSGSKSGNTASLTVSGLQTDDEAVYYCSSLVGNWDVIFGGGTKLTVLGQPKAAPSVTLFPPSSEELQANKATLVCLISDFYPGAVTVAWKADSSPVKAGVETTTPSKQSNNKYAASSYLSLTPEQWKSHRSYSCQVTHEGSTVEKTVAPTECS
B3: the IC50 in test [2] came to 0.95 nM.

B4: D1m-K8C-G99C_1xG4S_bNAb11: bispecific: D1m-K8C-G99C fused via 1xG4S to bNAb11 heavy chain; SEQ ID NOs 342 + 279 (antibody)
heavy: KKVVYGKCGDTVELTCTASQKKNIQFHWKNSNQIKILGNQGSFLTKGPSKLNDRVDSRRSLWDQGNFPLIIKNLKPEDSDTYICEVEDQKEEVQLVVVCGGGGSQPQLQESGPGLVEASETLSLTCTVSGDSTGRCNYFWGWVRQPPGKGLEWIGSLSHCRSYYNTDWTYHNPSLKSRLTISLDTPKNQVFLRLTSVTAADTATYYCARFGGEVLVYRDWPKPAWVDLWGRGTLVTVSSASTKGPSVFPLAPSSKSTSGGTAALGCLVKDYFPEPVTVSWNSGALTSGVHTFPAVLQSSGLYSLSSVVTVPSSSLGTQTYICNVNHKPSNTKVDKKV[human IgG1 Fc with changes not given here]
light: B3 light with S19T, R28N, H36Y, G47E, N66S, T77A, A81G
B4 showed an IC50 in test [2] of 8.69 nM.

The values are drawn from patent US12583911B2, “Human immunodeficiency virus GP120 binding proteins” (ViiV Healthcare UK (No.5) Limited, priority 2022, dated 2026).
